For 1 molecule, Kd results are on record in publication PMC5648786, “Characterization of a dual function macrocyclase enables design and use of efficient macrocyclization substrates” (Nature Communications, 2017).

The Kd is the equilibrium constant for the complex coming apart.

This test has as its target T1, GmPOPB-H698A (Galerina marginata, UniProt H2E7Q8 1-730, H698A).
T1 sequence: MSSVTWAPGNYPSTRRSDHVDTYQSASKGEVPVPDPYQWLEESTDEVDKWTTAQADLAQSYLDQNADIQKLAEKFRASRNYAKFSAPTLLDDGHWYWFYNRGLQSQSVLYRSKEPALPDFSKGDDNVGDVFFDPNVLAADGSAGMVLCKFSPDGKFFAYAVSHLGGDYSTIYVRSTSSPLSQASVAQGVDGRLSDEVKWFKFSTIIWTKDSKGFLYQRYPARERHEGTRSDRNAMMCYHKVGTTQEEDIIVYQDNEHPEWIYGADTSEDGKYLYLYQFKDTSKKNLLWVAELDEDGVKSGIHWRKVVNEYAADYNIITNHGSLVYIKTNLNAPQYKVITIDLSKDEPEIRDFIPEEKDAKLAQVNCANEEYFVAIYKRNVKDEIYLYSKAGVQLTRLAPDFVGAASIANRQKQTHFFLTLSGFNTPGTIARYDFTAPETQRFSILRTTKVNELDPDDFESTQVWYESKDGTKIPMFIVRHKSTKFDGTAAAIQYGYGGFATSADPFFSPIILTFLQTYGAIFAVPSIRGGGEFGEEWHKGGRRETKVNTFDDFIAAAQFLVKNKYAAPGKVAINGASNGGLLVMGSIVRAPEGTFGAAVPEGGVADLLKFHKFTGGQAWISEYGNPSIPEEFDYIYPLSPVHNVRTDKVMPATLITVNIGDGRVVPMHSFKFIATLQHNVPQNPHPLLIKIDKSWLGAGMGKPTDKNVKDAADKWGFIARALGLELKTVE
In words: ITC. Conditions: both partners purified.

In turn, IWGIGCNPWTAEHVDQTLASGNDIC (also called 25mer peptide) [25mer substrate (core, linker and recognition tail)] came in with a Kd of 47 nM. This counts as double-digit nanomolar.
